Measured values from several laboratories, pooled; numbers as filed in NIAID ChemDB.

Shared fields: tests in culture; agent: Mycobacterium tuberculosis

An empty or dashed field is not shown. Lines come from different laboratories, so protocols vary. MIC50, MIC90 and the like: level of inhibition, or share of isolates inhibited. Two numbers with a dash give a range or band. Percent inhibition refers to the dose given; in toxicity tests it is the harm to the cells. MIC bound: limit read from a one-dose screen.

structure	strain or isolate	method	dose	setting	measure	changes	result
Cc1c(CN2CCOCC2)cc(-c2ccc(Cl)cc2)n1-c1ccc(C(C)C)cc1	H37Rv				MIC90		6.74 µM
Fc1cccc(CSc2ncn[nH]2)c1	My 331/88				MIC		250 µM
COC(=O)c1cncc(N2CC(C)OC(C)C2)n1	H37Rv				MIC		500 µg/mL
O=C(O)c1c2n(c3cc(F)c(N4CCN(C(c5ccccc5)c5ccc(Cl)cc5)CC4)cc3c1=O)CS2	H37Rv	agar			MIC		11.66 µM
CC(=O)[C@]1(O)CC[C@@]2(O)[C@]1(C)[C@H](OC(=O)c1ccc(O)cc1)C[C@@H]1[C@@]3(C)CC[C@H](O)CC3=CC[C@]12O	H37Rv	BACTEC			MIC bound		>12.5 µg/mL
CO/C(=N\N=C\c1cccc(Cl)c1)c1ccncc1	6 PI				MIC		>20 µg/mL
c1ccc(C(=NOCc2nnc(N3CCOCC3)o2)c2ccccc2)cc1			12.5 µg/mL		inhibition		7–56%
CC(=O)n1cc(/C=C2/N=C(c3cccc(Cl)c3)OC2=O)c2ccccc21	H37Rv	BACTEC	12.5 µg/mL		inhibition		-6%
COc1ccc2cc(CN(C(=O)Nc3ccc(F)cc3)C3CCCCC3)c(=O)[nH]c2c1	H37Rv (ATCC 27294)	broth dilution		7 d	MIC		>64 µg/mL
CCOC(=O)CCC(NC(=O)c1ccc(Nc2nc3c([nH]2)c(=O)n(C)c(=O)n3C)cc1)C(=O)OCC	H37Rv	BACTEC			MIC bound		>12.5 µg/mL
C/C(=N\NC(=O)c1ccncc1)c1ccc(Cl)c(Cl)c1	16PI				MIC		>20 µg/mL
CCCCCCCCS(=O)(=O)CC(N)=O	OT2724				MIC		≤25 µg/mL
CC(C)(C)C1CCc2onc(C(=O)Nc3cnn(Cc4ccc(C(=O)NCc5ccccc5)cc4)c3)c2C1	Rv3602c				MIC		>128 µM
OCNC(=S)c1cncc(-n2ccnc2)n1	Isoniazid-resistant				MIC		250 µg/mL
O=C(CC1Sc2ccccc2NC1=O)NNc1c(Cl)cc(Cl)cc1Cl	H37Rv	BACTEC			MIC		≥12.5 µg/mL
CC(C)(C)OC(=O)c1ccc(Cn2cc(NC(=O)c3noc4c3CC(C(C)(C)C)CC4)cn2)cc1	Rv3602c				MIC		>128 µM
CO[C@H]1/C=C/O[C@@]2(C)Oc3c(C)c(O)c4c(O)c(c(/C=N/N5CCN(C)CC5)c(O)c4c3C2=O)NC(=O)/C(C)=C\C=C\[C@H](C)[C@H](O)[C@@H](C)[C@@H](O)[C@@H](C)[C@H](OC(C)=O)[C@@H]1C	13267				MIC		0.04 µg/mL
Clc1ccc(Nc2cc3nc4ccccc4n(-c4ccc(Cl)c(Cl)c4)c-3cc2=NC2CCNCC2)cc1Cl	2219 (INH RIF-RES)				MIC		0.12 µg/mL
Cc1ccc(S(=O)(=O)NN=C2CCC3(O)CC2(C)CCC2C3CC2(C)C)cc1	H37Rv	BACTEC	12.5 µg/mL		inhibition		11%
CC(C)(C)C1CCc2onc(C(=O)Nc3cnn(Cc4ccc(F)cc4F)c3)c2C1	Rv3602c	resazurin			MIC		>128 µM
CCOC(=O)C1=C(Nc2ccc(Cl)cc2)C(=O)N(C(C)(C)C)C1	H37Rv	BACTEC			MIC bound		>12.8 µg/mL
CC1(C)S[C@@H]2[C@H](NC(=O)[C@H](N)c3ccccc3)C(=O)N2[C@H]1C(=O)O	TMC 303				MIC		92 µM
CC(C)(C)OC(=O)NC1C2CN(c3cc4c(=O)c(C(=O)O)c5n(c4cc3[N+](=O)[O-])CS5)CC21	H37Rv	agar			MIC	MDR-TB	0.19 µM
NC(=O)CNC(=O)[C@@H]1C[C@@H](O)CN1C(=O)[C@@H]1CCCN1C(=O)OCc1ccccc1	H37Rv	resazurin	6.25 µg/mL		inhibition		-1%
COc1ccc(/C(C)=N/NC(=O)c2ccncc2)c(OC)c1	16PI				MIC		>20 µg/mL
CCc1ccc(-c2cc(CN3CCOCC3)c(C)n2-c2ccc(F)cc2)cc1	H37Rv DR4				MIC	V681I V581A N365S	0.66 µM
NCCCC(N)CC(=O)NCC1NC(=O)C(CO)NC(=O)C(NC(=O)CC(N)CCCN)CNC(=O)C(C2CCN=C(N)N2)NC(=O)/C(=C/NC(N)=O)NC1=O	Isolate VIM-R/3				MIC		5 µg/mL
CC1CCCCN1c1cncc(C(N)=S)n1	Ethionamide-resistant				MIC		62.5 µg/mL
Cc1ccc2nc(SCc3ccc(F)c(F)c3)[nH]c2c1	MY 332/88				MIC		32 µM
Brc1cccc(CSc2ncn[nH]2)c1	My 331/88				MIC		500 µM
CO/C(=N\N=C\c1ccc(C(F)(F)F)cc1)c1ccncc1	16PI				MIC		>20 µg/mL
Cn1cnnc1SCc1ccc(C(N)=S)cc1	My 331/88				MIC		250 µM
C/C(=N\OCc1nnc(COc2ccccc2)o1)c1ccccc1			12.5 µg/mL		inhibition		7–56%
COc1ccc(Cc2noc(NC(=O)c3noc4c3CC(C(C)(C)C)CC4)c2C(N)=O)cc1	Rv3602c	resazurin			MIC		>128 µM
CN[C@@H]1[C@H](O[C@H]2[C@H](O[C@H]3[C@H](O)[C@@H](O)[C@H](N=C(N)N)[C@@H](O)[C@@H]3N=C(N)N)O[C@@H](C)[C@]2(O)C=O)O[C@@H](CO)[C@H](O)[C@H]1O	MTB14 (S)				MIC		0.3 µg/mL
Cc1cc(C(C#N)c2nc3ccccc3[nH]2)nc(Cl)n1	H37Rv	BACTEC			MIC bound		>6.25 µg/mL
Cc1ccc2nc(SCc3c(F)cccc3[N+](=O)[O-])[nH]c2c1	MY 332/88				MIC		62 µM
Cc1c(N)nc([C@H](CC(N)=O)NC[C@@H](N)C(N)=O)nc1C(=O)N[C@H](C(=O)NC(C)C(O)CC(=O)NC(C(=O)NC(OC1OC(C)C(N)C(O)C1O)C(O)c1nc(-c2nc(C(=O)NCCCCN)cs2)cs1)[C@H](C)O)C(OC1OC(CO)C(O)C(O)C1OC1OC(CO)C(O)C(OC(N)=O)C1O)c1cnc[nH]1.Cl.Cl.Cl.Cl	INH-r				MIC		0.1 µg/mL
NC(=S)c1cncc(-n2ccnc2)n1	SP 607				MIC		250 µg/mL
CO[C@H]1/C=C/O[C@@]2(C)Oc3c(C)c(O)c4c(O)c(c5c(c4c3C2=O)NC2(CCN(CC(C)C)CC2)N=5)=NC(=O)/C(C)=C\C=C\[C@H](C)[C@H](O)[C@@H](C)[C@@H](O)[C@@H](C)[C@H](OC(C)=O)[C@@H]1C	1 isolates (Met515Ile Leu533Pro)				MIC		0.125 µg/mL
O=C(O)c1c2n(c3cc(F)c(N4CCC5(CC4)OCCO5)cc3c1=O)CS2	H37Rv	agar			MIC		0.99 µM
COc1ccc2ncc(COC(=O)NC3CCCCC3)c(COC(=O)NC3CCCCC3)c2c1	H37Rv	BACTEC			MIC		6.25 µg/mL
CC(C)N=c1cc2n(-c3ccc(Cl)cc3)c3ccccc3nc-2cc1Nc1ccc(Cl)cc1	2225 (SM INH RIF-RES)				MIC		0.5 µg/mL
C=C1C(=O)O[C@@H]2C[C@@]3(C)CC(=O)C=C(C)[C@@H]3C[C@H]12	H37Rv	BACTEC			MIC bound		>12.5 µg/mL
NCCC[C@H](N)CC(=O)N[C@H]1CNC(=O)[C@H]([C@H]2C[C@H](O)NC(N)=N2)NC(=O)/C(=C/NC(N)=O)NC(=O)[C@H](CO)NC(=O)[C@H](CO)NC1=O	Isolate VIM-R/4				MIC		>40 µg/mL
O=[N+]([O-])c1cc(CSc2ncn[nH]2)cc([N+](=O)[O-])c1	My 331/88				MIC		62.5 µM
CCCc1ccc(-n2c(-c3ccc(Cl)cc3)cc(CN3CCOCC3)c2C)cc1	H37Rv				MIC90		29.7 µM
CCN=c1cc2n(-c3ccc(Cl)cc3)c3ccc(Cl)cc3nc-2cc1Nc1ccc(Cl)cc1	H37Rv				MIC		0.25 µg/mL
CC1CCCCN1c1cncc(C(N)=O)n1	H37Rv				MIC		500 µg/mL
Cc1ccc2nc(SCc3ccccc3F)[nH]c2c1	MY 332/88				MIC		62 µM
COc1ccc2cc(CN(C(=O)Nc3ccc(F)cc3)C3CCCCCC3)c(=O)[nH]c2c1	H37Rv (ATCC 27294)	broth dilution		7 d	MIC		>64 µg/mL
Cc1ccc(-c2cc(CN3CCOCC3)c(C)n2-c2ccc(F)cc2)cc1	H37Rv DR1				MIC	V681I	5.4 µM
Cc1ccc(NCCNCCO)c2c(=O)c3ccccc3sc12	H37Rv	BACTEC	12.5 µg/mL		inhibition		99%
COc1ccc(-c2cc(CN3CCOCC3)c(C)n2-c2ccc(C(C)C)cc2)cc1	H37Rv				MIC90		17.1 µM
C/C(=N\OCCc1nnc(-c2ccccc2)o1)c1ccccc1			12.5 µg/mL		inhibition		7–56%
NC1=CC(=O)C(=O)c2ccccc21	H37Rv				MIC bound		>6.25 µg/mL
Brc1ccc(Nc2nnc(CON=C(c3ccccc3)c3ccccc3)o2)cc1			12.5 µg/mL		inhibition		7–56%
CC(C)(O)C1CCC2(C)C1C(O)CC1(C)C2CCC2C3(C)CCC(O)C(C)(C)C3C(O)CC21C	H37Rv	BACTEC	12.5 µg/mL		inhibition		30%
C/C(=N\NC(=O)c1ccncc1)c1cccc(Cl)c1	16PI				MIC		>20 µg/mL
NC[C@@H]1O[C@H](O[C@H]2[C@@H](O)[C@H](O[C@@H]3[C@@H](O)[C@H](N)C[C@H](N)[C@H]3O[C@H]3O[C@H](CO)[C@@H](O)[C@H](O)[C@H]3N)O[C@@H]2CO)[C@H](N)[C@@H](O)[C@@H]1O	MTB14 (S)				MIC		1.5 µg/mL
Nc1ccc(-c2nnc(CON=C(c3ccccc3)c3ccccc3)o2)cc1			12.5 µg/mL		inhibition		7–56%
CC(C)(C)OC(=O)NC1C2CN(c3cc4c(=O)c(C(=O)O)c5n(c4cc3F)CS5)CC21	H37Rv	agar			MIC	MDR-TB	0.42 µM
CO/C(=N\N=C\c1ccc(OC)cc1OC)c1ccncc1	H37Rv				MIC		>20 µg/mL
CC1CN(c2cc3c(=O)c(C(=O)O)c4n(c3cc2[N+](=O)[O-])CS4)CC(C)O1	H37Rv	agar			MIC		3.99 µM
C=CCN1CCN(c2ccncc2S(=O)(=O)N2CCN(C)CC2)CC1	H37Rv	resazurin			MIC bound		>6.25 µg/mL
CC(C)(C)C1CCc2onc(C(=O)O)c2C1	Rv3602c				MIC		>128 µM
NC(=O)c1cncc(-n2ccnc2)n1	Isoniazid-resistant				MIC		500 µg/mL
c1ccc(CNc2nnc3nc(-c4ccccc4)c(-c4ccccc4)nn23)cc1	H37Rv	BACTEC			MIC bound		>12.5 µg/mL
COc1ccc(/C(C)=N/NC(=O)c2ccncc2)cc1F	16PI				MIC		>20 µg/mL
S=C(NCN1CCOCC1)c1cncc(-n2ccnc2)n1	SP 607				MIC		125 µg/mL
CCn1cc(C(=O)O)c(=O)c2nc(S(C)=O)sc21	H37Rv	BACTEC	12.5 µg/mL		inhibition		0%
CC1CN(c2cncc(C(N)=S)n2)CC(C)O1	H37Rv				MIC		62.5 µg/mL
COc1ccc2cc(CN(C(=O)Nc3ccccc3Cl)C3CCCCC3)c(=O)[nH]c2c1	H37Rv (ATCC 27294)	broth dilution			MIC		>64 µg/mL
CC1CCCCN1c1cncc(/C(N)=N/O)n1	H37Rv				MIC		500 µg/mL
COc1ccc(-c2cc(=O)c3ccc4c(O)cccc4c3o2)cc1	H37Rv	BACTEC			MIC		≥12.8 µg/mL
Cc1ccccc1OCCSc1nnc(C(C)NC(=O)c2ccccc2C(F)(F)F)n1C	H37Rv (ATCC 27294)	broth dilution			MIC		>32 µg/mL
CC(=O)c1c(O)c(C)c(O)c2c1OC1=CC(=O)C(C(C)=O)C(=O)C12C	H37Rv				MIC		12.5 µg/mL
Cc1ccc(CSc2nc3ccc(C)cc3[nH]2)cc1	MY 332/88				MIC		>32 µM
CO/C(=N\N=C\c1cccc(F)c1)c1ccncc1	H37Rv				MIC		>20 µg/mL
O=C(O)c1c2n(c3cc([N+](=O)[O-])c(N4CCC(O)(c5ccc(Cl)cc5)CC4)cc3c1=O)CS2	H37Rv	agar			MIC		0.8 µM
CC1(C)OC2(CC1C1(C)C=CC(=O)O1)CC1(O)C(CCC34CC13C(=O)OC4c1ccoc1)O2	H37Rv	BACTEC	12.5 µg/mL		inhibition		12%
CO/C(=N\N=C\c1cc(OC)ccc1OC)c1ccncc1	16PI				MIC		>20 µg/mL

Repeating the first 4 entries:

structure,strain or isolate,method,dose,setting,measure,changes,result
Cc1c(CN2CCOCC2)cc(-c2ccc(Cl)cc2)n1-c1ccc(C(C)C)cc1,H37Rv,,,,MIC90,,6.74 µM
Fc1cccc(CSc2ncn[nH]2)c1,My 331/88,,,,MIC,,250 µM
COC(=O)c1cncc(N2CC(C)OC(C)C2)n1,H37Rv,,,,MIC,,500 µg/mL
O=C(O)c1c2n(c3cc(F)c(N4CCN(C(c5ccccc5)c5ccc(Cl)cc5)CC4)cc3c1=O)CS2,H37Rv,agar,,,MIC,,11.66 µM